Earlier results, collected in paper PMC4913920.

Molecular target: HIV-1 capsid protein CA (Human immunodeficiency virus 1) (UniProt O93182)

Question: For Cyclophilin A (from UniProt P62937), which Kd is on record?
Answer: Its Kd is 11.5 µM.
